{"source": "paper PMC5559489", "about": "(Scientific Reports, 2017)", "molecular_target": "influenza A(H1N1)pdm2009 virus neuraminidase (NA) (Influenza A virus, UniProt C3W5S3)", "experiment": "fluorescence-based neuraminidase inhibition (NAI) assay with 4-MU-NANA, A(H1N1)pdm09 isolates", "data": [{"smiles": "CCOC(=O)C1=C[C@@H](OC(CC)CC)[C@H](NC(C)=O)[C@@H](N)C1", "note": "[oseltamivir, Oseltamivir]", "values": [{"measurement": "share of resistant viruses among tested viruses, Pandemic A(H1N1)", "setting": "samples of 2013 (June–Sept.)", "result": 2.52, "unit": "%"}, {"measurement": "share of resistant viruses among tested viruses, Pandemic A(H1N1)", "setting": "samples of 2014 (March–April)", "result": 2.32, "unit": "%"}]}]}
